Results deposited as PubChem BioAssay AID504761 (Drosophila RNAi Screening Center, 2011)
Purpose: 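Insect host genes that dengue virus relies on to spread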 (primary screen). System: D.Mel-2 cells from Drosophila. Knock-down reagent: long dsRNA against Drosophila genes. Challenge: infection with dengue virus type 2; dose and infection time not stated. Measured: 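Cells stained for dengue envelope protein and imaged; percent of infected cells per well on duplicate plates, ranked by infection, with stained nuclei counted for cell number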. Direction: infection score: higher = more virus-infected cells; cell count: higher = more cells in the well. Hit rule: 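Low infection ranks in the two replicates (chance level up to 0.065) followed by a retest with a 1.5-fold or larger significant decrease, p below 0.05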. Calls: active = confirmed: knock-down lowers infection; inactive = not picked or not confirmed.
In all, the deposit lists about 22,000 reagents; this is a random part of those that have a named target and a result. Of all reagents, 116 (0.52%) got an active call. 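Calls depend on retest data that are not deposited; infection was ranked per plate without normalising between plates; the unit of the infection score is not given.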 Raw values vary from plate to plate and are shown uncorrected. Unmarked entries are inactive. A plus sign joins genes that one reagent is predicted to hit. The record does not give: the amount of reagent, the time to read-out.

The opening 8 records, ahead of the listing:
| Gene | amplicon | infection score, replicate 1 | infection score, replicate 2 | cell count, replicate 1 | cell count, replicate 2 |
| --- | --- | --- | --- | --- | --- |
| lncRNA:CR31526 (GeneID 318783) | DRSC21520 | 1.8 | 2.33 | 6050 | 6062 |
| lncRNA:CR31526 (GeneID 318783) | DRSC26871 | 7.08 | 5.09 | 6289 | 6657 |
| RpL32 (GeneID 43573) | DRSC16835 | 1.13 | 1.42 | 1059 | 914 |
| RpL32 (GeneID 43573) | DRSC27164 | 8.53 | 11.1 | 1617 | 1291 |
| CG14797 (GeneID 31123) | DRSC17955 | 20.6 | 14.9 | 5568 | 4594 |
| Ttc26 (GeneID 41905) | DRSC15591 | 3.19 | 2.23 | 6765 | 6785 |
| Ttc26 (GeneID 41905) | DRSC27237 | 3.97 | 21.3 | 6831 | 6194 |
| Cyp6a2 (GeneID 35587) | DRSC05014 | 17.7 | 18.9 | 6203 | 4849 |

The list itself, from the start:
| Gene | amplicon | infection score, replicate 1 | infection score, replicate 2 | cell count, replicate 1 | cell count, replicate 2 |
| --- | --- | --- | --- | --- | --- |
| lncRNA:CR31526 (GeneID 318783) | DRSC21520 | 1.8 | 2.33 | 6050 | 6062 |
| lncRNA:CR31526 (GeneID 318783) | DRSC26871 | 7.08 | 5.09 | 6289 | 6657 |
| RpL32 (GeneID 43573) | DRSC16835 | 1.13 | 1.42 | 1059 | 914 |
| RpL32 (GeneID 43573) | DRSC27164 | 8.53 | 11.1 | 1617 | 1291 |
| CG14797 (GeneID 31123) | DRSC17955 | 20.6 | 14.9 | 5568 | 4594 |
| Ttc26 (GeneID 41905) | DRSC15591 | 3.19 | 2.23 | 6765 | 6785 |
| Ttc26 (GeneID 41905) | DRSC27237 | 3.97 | 21.3 | 6831 | 6194 |
| Cyp6a2 (GeneID 35587) | DRSC05014 | 17.7 | 18.9 | 6203 | 4849 |
| Cyp6a2 (GeneID 35587) | DRSC24091 | 2.98 | 1.35 | 6307 | 5866 |
| CG12126 (GeneID 35805) | DRSC06103 | 12.8 | 18.3 | 6275 | 4980 |
| 4E-T (GeneID 43836) | DRSC17201 | 2.54 | 8.86 | 6146 | 6433 |
| 4E-T (GeneID 43836) | DRSC17208 | 8.38 | 1.61 | 5025 | 6705 |
| CG4554 (GeneID 37570) | DRSC04473 | 0.48 | 1.12 | 6477 | 6877 |
| CG4554 (GeneID 37570) | DRSC27881 | 17.7 | 6.46 | 4859 | 6397 |
| MESR3 (GeneID 35116) | DRSC02463 | 13.2 | 11.2 | 4986 | 2517 |
| inaF-B + inaF-D + inaF-C + 1 more | DRSC20342 | 20.3 | 9.44 | 5665 | 5740 |
| inaF-B + inaF-D + inaF-C + 1 more | DRSC28607 | 12.3 | 5.32 | 5142 | 4982 |
| Ufl1 (GeneID 40843) | DRSC12527 | 3.03 | 8.9 | 6530 | 6526 |
| CG12728 (GeneID 31526) | DRSC17883 | 17.5 | 6.7 | 1832 | 6850 |
| Wbp2 (GeneID 39460) | DRSC25018 | 1.82 | 2.52 | 6850 | 6313 |
| CG5989 (GeneID 38984) | DRSC10565 | 3.52 | 9.23 | 6593 | 6590 |
| CG12011 (GeneID 38211) | DRSC08219 | 7.42 | 3.55 | 5594 | 6741 |
| CG12011 (GeneID 38211) | DRSC27315 | 28.2 | 15.9 | 5686 | 4018 |
| CG33223 + CG32713 | DRSC28559 | 17.5 | 12.5 | 3874 | 5168 |
| grau (GeneID 45871) | DRSC04691 | 15.1 | 17.7 | 6932 | 7199 |
| grau (GeneID 45871) | DRSC27330 | 12.3 | 11.7 | 7060 | 5142 |
| CG11608 (GeneID 41556) | DRSC14334 | 1.06 | 6.51 | 6220 | 6648 |
| Ccdc58 (GeneID 40159) | DRSC10218 | 8.62 | 9.01 | 6088 | 6936 |
| csul (GeneID 36809) | DRSC07599 | – | 17.5 | 459 | 5092 |
| CG31058 (retired record) (GeneID 43320) | DRSC22987 | 2.66 | 18.1 | 5980 | 4233 |
| CG31058 (retired record) (GeneID 43320) | DRSC25786 | 3.15 | 13.9 | 5991 | 5981 |
| CG42741 (GeneID 37654) | DRSC04593 | 7.52 | 5.31 | 6406 | 6569 |
| CG42741 (GeneID 37654) | DRSC22045 | 3.28 | 3.91 | 6162 | 5758 |
| CG42741 (GeneID 37654) | DRSC30003 | 9.77 | 6.52 | 6522 | 6102 |
| SP (GeneID 39494) | DRSC09664 | 0.33 | 3.14 | 6147 | 6999 |
| C3G (GeneID 31618) | DRSC17929 | 5.39 | 5.37 | 6395 | 6486 |
| C3G (GeneID 31618) | DRSC23077 | 2.14 | 9.53 | 5899 | 5678 |
| C3G (GeneID 31618) | DRSC29081 | 11.5 | 5.65 | 4375 | 6263 |
| nSyb (GeneID 38196) | DRSC08727 | 6.25 | – | 3649 | 422 |
| nSyb (GeneID 38196) | DRSC27077 | 11.2 | 8.45 | 6575 | 6665 |
| Tat (GeneID 32381) | DRSC19602 | 2.04 | 4.84 | 6505 | 6466 |
| RpL10Aa (GeneID 41811) | DRSC15518 | 7.71 | 20.5 | 7042 | 4286 |
| CG10280 (GeneID 40740) | DRSC12133 | 4.23 | 5.46 | 6627 | 6305 |
| CG10280 (GeneID 40740) | DRSC25571 | 4.51 | 6.64 | 6446 | 6627 |
| CG32855 (GeneID 318250) | DRSC13131 | 1.88 | 0.61 | 6210 | 5384 |
| f (GeneID 32718) | DRSC19174 | 2.25 | 5.55 | 6262 | 5878 |
| f (GeneID 32718) | DRSC19516 | 19.4 | 2.99 | 4197 | 6590 |
| f (GeneID 32718) | DRSC20331 | 0.6 | 5 | 6501 | 6516 |
| f (GeneID 32718) | DRSC25251 | 2.25 | 4.76 | 6097 | 6025 |
| f (GeneID 32718) | DRSC28735 | 15.5 | 13.3 | 5252 | 4504 |
| Achl (GeneID 36605) | DRSC06665 | 4.65 | 9.66 | 6758 | 6375 |
| Achl (GeneID 36605) | DRSC29366 | 22.3 | 21.3 | 5500 | 5494 |
| pippin (GeneID 37770) | DRSC04489 | 10.6 | 28.1 | 6646 | 2100 |
| CG32591 (GeneID 318104) | DRSC19063 | 0.08 | 2.8 | 6243 | 6389 |
| Traf-like (GeneID 32611) | DRSC19894 | 3.65 | 2.93 | 6597 | 6476 |
| Wdr59 (GeneID 34540) | DRSC02771 | 7.75 | 21.7 | 6249 | 5474 |
| Gr59c (GeneID 192481) | DRSC04185 | 7.94 | 19.8 | 2908 | 4720 |
| CG14963 (GeneID 38383) | DRSC08422 | 1.53 | 2.83 | 6062 | 5652 |
| CG17167 (GeneID 3354991) | DRSC20902 | 9.64 | 3.55 | 5914 | 5889 |
| CG17167 (GeneID 3354991) | DRSC20903 | 3.41 | 1.38 | 6079 | 6073 |
| CG10163 (GeneID 38728) | DRSC09710 | 2.31 | 6.25 | 5851 | 5810 |
| CG8745 (GeneID 39530) | DRSC11033 | 11.9 | 8.47 | 7110 | 7319 |
| CG8745 (GeneID 39530) | DRSC11034 | 1.74 | 2.49 | 6568 | 6637 |
| CG8745 (GeneID 39530) | DRSC22741 | 13.8 | 21.7 | 7010 | 6297 |
| ball (GeneID 43228) | DRSC14145 | 19.3 | 11.5 | 4679 | 5319 |
| ball (GeneID 43228) | DRSC26607 | 4.7 | 5.42 | 4600 | 6416 |
| Cortactin (GeneID 42491) | DRSC16612 | 5.57 | 12.9 | 6047 | 6444 |
| Cortactin (GeneID 42491) | DRSC28012 | 12 | 28 | 905 | 5482 |
| Mob4 (GeneID 35576) | DRSC04993 | 11.7 | 14.7 | 6410 | 6411 |
| Mob4 (GeneID 35576) | DRSC29567 | 19.4 | – | 3972 | 376 |
| Npc2h (GeneID 43649) | DRSC14297 | 9.29 | 8.98 | 5942 | 5679 |
| Mpv17 (GeneID 43831) | DRSC17198 | 2.89 | 1.72 | 6682 | 6289 |
| CG15818 (GeneID 34019) | DRSC02505 | 5.77 | 5.4 | 6581 | 6246 |
| CG15818 (GeneID 34019) | DRSC28515 | 9.43 | 3.74 | 3427 | 5776 |
